Data as given in PubChem BioAssay AID624099 (ICCB-Longwood, 2012).
Assay: 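Human genes that papillomavirus E2 requires to repress the HPV18 LCR promoter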 (primary screen). Cell system: human C33A cervical carcinoma cells (HPV-negative) stably expressing BPV1 E2 and an HPV18 LCR luciferase reporter. Reagents: siRNA pool against human genes, 40 nM. Timing: 72 h. Read-out: 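HPV18 LCR reporter light per well, converted to plate-wise z-scores that exclude control wells, and averaged over triplicate plates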. Direction: mean z-score and z-score: higher = stronger reporter signal, weaker E2 silencing. Rule for the call: 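Hit if mean z-score reaches 2 and two or more of three replicate z-scores also reach 2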.
In all, the deposit lists about 21,000 reagents; below is a random part of them. 497 of them (2.4%) count as active. 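Higher z means weaker E2 silencing; only reporter increases were scored, and knock-downs that hurt cell survival may mask genuine repressor factors.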 Reagents against one gene are numbered here.

The opening 4 entries, to show the layout:
| target | reagent no. | mean z-score | z-score, replicate A | z-score, replicate B | z-score, replicate C | call |
| --- | --- | --- | --- | --- | --- | --- |
| EIF1AY | 1 | 0.21 | -0.4 | 0.43 | 0.61 | inactive |
| LRRC31 | 1 | 1.07 | 1.23 | 1.67 | 0.31 | inactive |
| HACL2 | 1 | -0.1 | -0.08 | -0.09 | -0.13 | inactive |
| ERG | 1 | -0.95 | -1.31 | -0.74 | -0.8 | inactive |

Main list, repeating the preview:
| target | reagent no. | mean z-score | z-score, replicate A | z-score, replicate B | z-score, replicate C | call |
| --- | --- | --- | --- | --- | --- | --- |
| EIF1AY | 1 | 0.21 | -0.4 | 0.43 | 0.61 | inactive |
| LRRC31 | 1 | 1.07 | 1.23 | 1.67 | 0.31 | inactive |
| HACL2 | 1 | -0.1 | -0.08 | -0.09 | -0.13 | inactive |
| ERG | 1 | -0.95 | -1.31 | -0.74 | -0.8 | inactive |
| OR6K3 | 1 | -0.36 | -0.89 | -0.05 | -0.16 | inactive |
| MARS2 | 1 | 1.54 | 1.54 | 1.2 | 1.87 | inactive |
| RXRG | 1 | 1.35 | 1.59 | 1.02 | 1.43 | inactive |
| PNPO | 1 | -0.67 | -0.82 | -0.9 | -0.28 | inactive |
| FASTKD5 | 1 | -0.24 | -0.45 | -0.57 | 0.3 | inactive |
| RNF180 | 1 | -0.68 | -0.85 | -0.44 | -0.73 | inactive |
| MMP23A | 1 | -0.86 | -0.84 | -0.68 | -1.06 | inactive |
| GSDMD | 1 | -0.86 | -0.99 | -0.83 | -0.77 | inactive |
| NAPB | 1 | 0.93 | 0.93 | 1.23 | 0.64 | inactive |
| H1-10 | 1 | -0.61 | -0.46 | -0.45 | -0.93 | inactive |
| NRDC | 1 | -1.25 | -1.47 | -1.04 | -1.25 | inactive |
| RLN2 | 1 | 1.01 | 0.99 | 1.12 | 0.92 | inactive |
| SERPINA12 | 1 | 0.52 | 0.46 | 1.03 | 0.07 | inactive |
| NUP43 | 1 | -1.74 | -1.79 | -1.59 | -1.85 | inactive |
| PDCL | 1 | 0.26 | 0.7 | 0.08 | 0.01 | inactive |
| TESC | 1 | -0.49 | -0.39 | -0.11 | -0.97 | inactive |
| RIPOR3 | 1 | -0.09 | 0.01 | -0.02 | -0.26 | inactive |
| RIPOR3 | 2 | -0.39 | -0.54 | -0.5 | -0.13 | inactive |
| LOC150519 (retired record) | 1 | 1.11 | 1.12 | 1.19 | 1.02 | inactive |
| OR7G1 | 1 | 0.57 | 0.71 | 0.62 | 0.39 | inactive |
| RIT2 | 1 | -0.46 | -0.47 | -0.4 | -0.5 | inactive |
| MEX3C | 1 | 0.12 | 0.15 | -0.1 | 0.31 | inactive |
| P4HTM | 1 | -1.7 | -1.78 | -1.72 | -1.58 | inactive |
| SEC61A2 | 1 | 1.45 | 1.58 | 1.45 | 1.33 | inactive |
| PDE6H | 1 | 0.08 | 0 | 0.3 | -0.07 | inactive |
| FEZF2 | 1 | 0.04 | 0.47 | -0.17 | -0.17 | inactive |
| PCLAF | 1 | 0.59 | 0.78 | 0.33 | 0.67 | inactive |
| MAP2 | 1 | 0.33 | 0.17 | 0.34 | 0.47 | inactive |
| RCHY1 | 1 | 0.47 | 0.68 | 0.27 | 0.47 | inactive |
| ZNF451 | 1 | -0.35 | -0.66 | -0.08 | -0.31 | inactive |
| CCDC177 | 1 | -0.21 | -0.18 | -0.26 | -0.2 | inactive |
| FLJ45337 (retired record) | 1 | 0.44 | 0.72 | 0.38 | 0.21 | inactive |
| SPNS2 | 1 | 0.77 | 0.66 | 0.85 | 0.8 | inactive |
| GBP4 | 1 | -0.32 | 0.03 | -0.63 | -0.36 | inactive |
| HLA-A | 1 | 0.32 | 0.42 | 0.34 | 0.21 | inactive |
